Anti-infective test results gathered from many reports (values: NIAID ChemDB through PubChem).

Common to all: tests on isolated targets; agent: HIV-1; target: Integrase; endpoint: inhibition

Percent inhibition refers to the dose given; in toxicity tests it is the harm to the cells. An empty or dashed field is not shown. Conditions beyond the fields shown may differ between rows.

compound,dose,strain,method,value
Cc1cc(C2(c3cc(C)c(O)c(CN(CC(=O)O)CC(=O)O)c3)OS(=O)(=O)c3ccccc32)cc(CN(CC(=O)O)CC(=O)O)c1O,100 µg/mL,RF,strand transfer,30.9%
O=C(O)c1c[nH]c2ccc(S(=O)(=O)N3CCN(c4cccc(Cl)c4)CC3)cc2c1=O,1000 µM,-,strand transfer,76.59%
CC(=O)O[C@@H]1[C@H]2O[C@H]2[C@H]2O[C@@]2(COC(=O)c2ccccc2)[C@H]1OC(C)=O,25 µg/mL,-,ELISA / strand transfer,9%
O=C(O)c1c[nH]c2ccc(S(=O)(=O)NC34CC5CC(CC(C5)C3)C4)cc2c1=O,1000 µM,-,strand transfer,90.93%
CC1CCC[C@@H]2[C@]3(CCC[C@@]12C)C[C@H](c1ccoc1)OC3=O,25 µg/mL,-,ELISA / strand transfer,9.1%
NC(CCSSCCC(N)P(=O)(O)O)P(=O)(O)O,100 µg/mL,RF,3′ processing,49.9%
O=C(O)c1c[nH]c2ccc(S(=O)(=O)N3CCC(C(=O)O)CC3)cc2c1=O,1000 µM,-,strand transfer,55.88%
O=c1oc2c(O)c(O)cc3c(=O)oc4c(O)c(O)cc1c4c23,25 µg/mL,-,ELISA / strand transfer,11.3%
CCn1cc(C(=O)O)c(=O)c2ccc(C)nc21,10 µM,-,AlphaScreen,22.34%
CCCCC/C=C/C=C/C(=O)NCC(C)C,25 µg/mL,-,ELISA / strand transfer,19%
NC(N)=NS(=O)(=O)c1ccc(Nc2c3ccccc3nc3c(C(=O)NC(CO)(CO)CO)cccc23)cc1,100 µg/mL,RF,strand transfer,45.7%
O=CCc1c(-c2ccccc2)c2cc(Cl)ccc2[nH]c1=O,10 µM,-,AlphaScreen,45.13%
CC(=O)O[C@H](C)[C@@H]1C2=C(C(=O)C[C@]1(C)O)C(=O)c1c(ccc(-c3ccc4c(c3O)C(=O)C3=C(C4=O)[C@@H]([C@@H](C)OC(C)=O)[C@@](C)(O)CC3=O)c1O)C2=O,100 µg/mL,RF,3′ processing,50%
CC(C)(Oc1ccc(CCNC(=O)c2ccc(Cl)cc2)cc1)C(=O)O,10 µM,-,AlphaScreen,28.45%
O=C(O)c1c[nH]c2ccc(S(=O)(=O)NCC34CC5CC(CC(C5)C3)C4)cc2c1=O,1000 µM,-,strand transfer,99.93%
CN/N=C(/c1nc2ccc([N+](=O)[O-])cc2[nH]c1=O)C(O)c1ccc(C(O)/C(=N/NC)c2nc3ccc([N+](=O)[O-])cc3[nH]c2=O)cc1,100 µg/mL,RF,strand transfer,47.1%